Data: patent publication US20150174265, “REVERSIBLE MASKING OF PORE-FORMING PROTEINS FOR MACROMOLECULAR DELIVERY” (published 2015)

Tests used:
[1] = target: carcinoembryonic antigen (CEA) on human cancer cell lines, human, P06731 35-685; assay: cell-based or functional assay
[2] = target: epidermal growth factor receptor (EGFR) on human cancer cell lines, human, P00533 25-1210; assay: cell-based or functional assay

Substance	IC50 of cytotoxicity on HT-29 cells [1] [nM]	IC50 of cytotoxicity on HT-1080 (CEA) cells [1] [nM]	IC50 of cytotoxicity on A431 cells [2] [nM]	IC50 of cytotoxicity on HT-29 cells [2] [nM]	IC50 of cytotoxicity on HT-1080 (CEA) cells [2] [nM]
C7PFO (anti-CEA Fn3-perfringolysin O)	0.12	0.007	–	–	–
E6PFO (anti-EGFR Fn3-perfringolysin O)	–	–	0.54	0.015	0.01
